Measurements taken from publication PMC10978252 (Journal of medicinal chemistry, 2024).

Target: HIV-Nef (Human immunodeficiency virus type 1, UniProt P03406)
Format: cell-based, HIV-1
Conditions: 24 h

**Q.** `CNC(=O)O[C@@H](CC(C)C)c1nc([C@H]2OC(=O)/C(C)=C/C/C(C)=C/[C@@H](O)[C@@H](C)\C=C(C)/C=C(C)\C=C\[C@@H](O)[C@H](C)[C@H](OC)/C(C)=C/C=C/[C@@H]2C)cs1` [compound 3, archazolid A, reference compound] was tested. Which “Nef inhibitory potency, in words (relative to parent or comparator)” value did it give?
**A.** sub nM potency
